{"sequences": {"note": "Amino acid sequences for entries named in this document (tags omitted). Residues count along the entry.", "UniProt P9WHH9, whole entry": "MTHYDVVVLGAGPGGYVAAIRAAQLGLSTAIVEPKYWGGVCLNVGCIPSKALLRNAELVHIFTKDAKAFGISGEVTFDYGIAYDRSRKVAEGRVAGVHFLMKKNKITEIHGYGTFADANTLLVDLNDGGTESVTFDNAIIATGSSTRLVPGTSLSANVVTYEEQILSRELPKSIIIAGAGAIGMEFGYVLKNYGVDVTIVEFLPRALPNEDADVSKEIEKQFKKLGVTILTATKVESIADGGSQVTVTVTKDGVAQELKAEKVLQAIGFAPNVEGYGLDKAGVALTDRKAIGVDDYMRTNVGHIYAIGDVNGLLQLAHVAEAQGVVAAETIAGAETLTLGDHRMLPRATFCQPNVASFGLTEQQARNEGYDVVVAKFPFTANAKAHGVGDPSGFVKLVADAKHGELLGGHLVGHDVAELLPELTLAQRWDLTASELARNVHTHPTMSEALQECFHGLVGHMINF", "UniProt P09622, 36-509 limits assumed": "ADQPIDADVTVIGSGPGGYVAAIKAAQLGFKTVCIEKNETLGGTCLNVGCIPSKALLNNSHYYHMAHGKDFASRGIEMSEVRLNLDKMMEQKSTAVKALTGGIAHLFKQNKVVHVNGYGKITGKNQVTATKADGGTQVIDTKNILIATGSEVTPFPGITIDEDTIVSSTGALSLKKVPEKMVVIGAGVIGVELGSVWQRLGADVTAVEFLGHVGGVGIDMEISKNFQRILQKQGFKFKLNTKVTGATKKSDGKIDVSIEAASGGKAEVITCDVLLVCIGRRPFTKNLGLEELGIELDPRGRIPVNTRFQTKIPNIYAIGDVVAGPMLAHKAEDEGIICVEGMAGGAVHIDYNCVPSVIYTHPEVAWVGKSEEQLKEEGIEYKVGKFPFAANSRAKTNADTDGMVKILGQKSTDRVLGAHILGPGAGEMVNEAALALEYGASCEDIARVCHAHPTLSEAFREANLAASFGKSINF"}, "source": "patent US20240132480A1", "about": "“INHIBITORS OF MYCOBACTERIUM TUBERCULOSIS LIPOAMIDE DEHYDROGENASE” (Cornell University, priority 2021, published 2024)", "key": {"Mtb Lpd": {"target": "Mtb Lpd (Mycobacterium tuberculosis (strain ATCC 25618 / H37Rv), UniProt P9WHH9)", "test": "LPD assay (DTNB assay), Mtb Lpd WT", "type": "biochemical", "conditions": "read-out: LPD IC50"}, "[1]": {"test": "Microsomal clearance (hLM)", "conditions": "human liver microsomes"}, "[2]": {"test_system": "WT Mycobacterium tuberculosis H37Rv", "test": "MIC assay", "conditions": "for MIC90: WT Mtb grown in a carbohydrate-based medium"}, "WT Mtb": {"test_system": "WT Mtb", "test": "Nitrosative stress survival (pH 5.5 with or without 3 mM NaNO2), CFU"}, "human Lpd": {"target": "human Lpd (Homo sapiens (Human), UniProt P09622)", "test": "SPR, human Lpd", "type": "binding"}, "WT Mtb in mouse BMDM": {"test_system": "WT Mtb in mouse BMDM", "test": "Infection of BMDM with Mtb, CFU", "conditions": "day 6 post infection, 30 μM"}, "HEPG2 cells": {"test_system": "HEPG2 cells", "test": "Cytotoxicity in HEPG2 cells"}}}
{"smiles": "Cc1cc(S(=O)(=O)N(C)CC(=O)Nc2ccc(N3CCOCC3)c(Cl)c2)c2[nH]nc(F)c2c1", "values": [{"measurement": "IC50", "setting": "Mtb Lpd", "result": 15, "unit": "nM"}, {"measurement": "Human Liver Microsome Stability", "setting": "[1]", "result": 144, "unit": "µL/min/mg"}]}
{"smiles": "Cc1cc(S(=O)(=O)N(C)CC(=O)Nc2ccc(N3CCOCC3)c(C3CC3)c2)c2[nH]ncc2c1", "values": [{"measurement": "IC50", "setting": "Mtb Lpd", "result": 21.4, "unit": "nM"}, {"measurement": "Human Liver Microsome Stability", "setting": "[1]", "result": 164, "unit": "µL/min/mg"}]}
{"smiles": "Cc1cc(S(=O)(=O)N(C)CC(=O)Nc2ccc(N3CCN(C)CC3)c(Cl)c2)c2[nH]ncc2c1", "values": [{"measurement": "IC50", "setting": "Mtb Lpd", "result": 44.3, "unit": "nM"}, {"measurement": "Human Liver Microsome Stability", "setting": "[1]", "result": 46, "unit": "µL/min/mg"}]}
{"smiles": "CCN(CC(=O)Nc1ccc(N2CCOCC2)c(Cl)c1)S(=O)(=O)c1cc(C)cc2cn[nH]c12", "values": [{"measurement": "IC50", "setting": "Mtb Lpd", "result": 46.9, "unit": "nM"}, {"measurement": "Human Liver Microsome Stability", "setting": "[1]", "result": 131, "unit": "µL/min/mg"}]}
{"smiles": "CCc1cc(NC(=O)CN(C)S(=O)(=O)c2cc(C)cc3cn[nH]c23)ccc1N1CCOCC1", "values": [{"measurement": "IC50", "setting": "Mtb Lpd", "result": 28.7, "unit": "nM"}, {"measurement": "Human Liver Microsome Stability", "setting": "[1]", "result": 179, "unit": "µL/min/mg"}]}
{"smiles": "Cc1cc(S(=O)(=O)N(C)CC(=O)Nc2ncc(C)s2)c2[nH]ncc2c1", "values": [{"measurement": "IC50", "setting": "Mtb Lpd", "result": 27.3, "unit": "nM"}]}
{"smiles": "Cc1cc(S(=O)(=O)N(C)CC(=O)Nc2nc(-c3ccccc3)cs2)c2[nH]ncc2c1", "values": [{"measurement": "IC50", "setting": "Mtb Lpd", "result": 70.6, "unit": "nM"}]}
{"smiles": "CN(CC(=O)Nc1ccn(C)c(=O)c1)S(=O)(=O)c1cc(Br)cc2cn[nH]c12", "values": [{"measurement": "Human Liver Microsome Stability", "setting": "[1]", "result": 36, "unit": "µL/min/mg"}]}
{"smiles": "Cc1cc(S(=O)(=O)N(C)CC(=O)Nc2ccc(N3CCOCC3)cc2)c2[nH]ncc2c1", "values": [{"measurement": "IC50", "setting": "Mtb Lpd", "result": 29, "unit": "nM"}, {"measurement": "Mtb MIC90", "setting": "[2]", "result": 12, "unit": "µM"}]}
{"smiles": "Cc1cc(S(=O)(=O)N(C)CC(=O)Nc2ncc(-c3ccccc3)s2)c2[nH]ncc2c1", "values": [{"measurement": "IC50", "setting": "Mtb Lpd", "result": 39.1, "unit": "nM"}]}
{"smiles": "Cc1cc(S(=O)(=O)N(C)CC(=O)Nc2ccc(C#N)c(Cl)c2)c2[nH]ncc2c1", "values": [{"measurement": "IC50", "setting": "Mtb Lpd", "result": 29.3, "unit": "nM"}]}
{"smiles": "Cc1cc(S(=O)(=O)N(C)CC(=O)Nc2ccn(C)c(=O)c2)c2[nH]ncc2c1", "note": "[Example 24, 2-((5-chloro-N-methyl-1H-indazole)-7-sulfonamido)-N-(1-methyl-2-oxo-1,2-dihydropyridin-4-yl)acetamide]", "values": [{"measurement": "Mtb MIC90", "setting": "[2]", "result": 3.1, "unit": "µM"}, {"measurement": "MIC90", "setting": "[2]", "result": 3.1, "unit": "µM"}, {"measurement": "effect on WT Mtb survival (CFU)", "setting": "WT Mtb; pH 5.5 alone, same concentrations, 4 days", "result": "had no effect"}, {"measurement": "effect on WT Mtb survival (CFU)", "setting": "WT Mtb; pH 5.5 in the presence of 3 mM NaNO2, 4 days", "result": "bactericidal in a concentration-dependent manner"}, {"measurement": "SPR t1/2", "setting": "human Lpd; Human WT", "result": 1.9, "unit": "min"}, {"measurement": "SPR t1/2", "setting": "human Lpd; Human WT/NADH", "result": 2.7, "unit": "min"}, {"measurement": "inhibition of growth of Mtb", "setting": "WT Mtb in mouse BMDM; IFNgama-activated BMDM", "result": 0.5, "unit": "log10"}, {"measurement": "inhibition of growth of Mtb", "setting": "WT Mtb in mouse BMDM; naïve BMDM", "result": 1, "unit": "log10"}, {"measurement": "cytotoxicity, no signs up to", "setting": "HEPG2 cells", "result": "> 100", "unit": "µM"}]}
{"smiles": "Cc1cc(S(=O)(=O)N(C)CC(=O)Nc2ccc(N3CCOCC3)c(Cl)c2)c2[nH]ccc2c1", "values": [{"measurement": "IC50", "setting": "Mtb Lpd", "result": 153, "unit": "nM"}, {"measurement": "Human Liver Microsome Stability", "setting": "[1]", "result": 101, "unit": "µL/min/mg"}]}
{"smiles": "Cc1cc2cn[nH]c2c(S(=O)(=O)N(C)CC(=O)Nc2ccn(C)c(=O)c2)c1C", "values": [{"measurement": "IC50", "setting": "Mtb Lpd", "result": 86.8, "unit": "nM"}, {"measurement": "Human Liver Microsome Stability", "setting": "[1]", "result": 58, "unit": "µL/min/mg"}]}
{"smiles": "Cc1cc(S(=O)(=O)N(C)CC(=O)Nc2ccc(N3CCOCC3)c(F)c2)c2[nH]ncc2c1", "values": [{"measurement": "IC50", "setting": "Mtb Lpd", "result": 31, "unit": "nM"}, {"measurement": "Human Liver Microsome Stability", "setting": "[1]", "result": 46, "unit": "µL/min/mg"}]}
{"smiles": "CN(CC(=O)Nc1ccc(N2CCOCC2)c(Cl)c1)S(=O)(=O)c1cc(C(F)F)cc2cn[nH]c12", "values": [{"measurement": "IC50", "setting": "Mtb Lpd", "result": 31.9, "unit": "nM"}, {"measurement": "Human Liver Microsome Stability", "setting": "[1]", "result": 198, "unit": "µL/min/mg"}]}
{"smiles": "COc1ccc(NC(=O)CN(C)S(=O)(=O)c2cc(C)cc3cn[nH]c23)cc1Cl", "note": "[Example 1, N-(3-chloro-4-methoxyphenyl)-2-((N,5-dimethyl-1H-indazole)-7-sulfonamido)acetamide]", "values": [{"measurement": "Mtb MIC90", "setting": "[2]", "result": 25, "unit": "µM"}, {"measurement": "MIC90", "setting": "[2]", "result": 25, "unit": "µM"}]}
